Measured values from several laboratories, pooled; numbers as filed in NIAID ChemDB.

Shared fields: whole-cell or culture tests; organism: Mycobacterium avium intracellulare

MIC50, MIC90 and the like: level of inhibition, or share of isolates inhibited. Lines come from different laboratories, so protocols vary.

{"structure": "CC1COc2c(N3CCN(C)CC3)c(F)cc3c(=O)c(C(=O)O)cn1c23", "strain or isolate": "16 isolates", "measure": "MIC50", "value": "50 µg/mL"}
{"structure": "CCC(C)N1CCN(c2cc(=O)c3nc4c(oc3c2)c2c(=O)c3c(O)c(C)c5c(c34)=C(O)[C@@](C)(O/C=C/[C@H](OC)[C@@H](C)[C@@H](OC(C)=O)[C@H](C)[C@H](O)[C@H](C)[C@@H](O)[C@@H](C)/C=C/C=C(/C)C(=O)N2)O5)CC1", "strain or isolate": "31 strains", "measure": "MIC50", "value": "0.1 µg/mL"}
{"structure": "C[C@H]1COc2c(N3CCN(C)CC3)c(F)cc3c(=O)c(C(=O)O)cn1c23", "strain or isolate": "16 isolates", "measure": "MIC90", "value": "50 µg/mL"}
{"structure": "CN1CCN(c2c(F)cc3c(=O)c(C(=O)O)cn(CCF)c3c2F)CC1", "measure": "MIC", "value": "8.1 µg/mL"}
{"structure": "CO[C@H]1/C=C/O[C@@]2(C)Oc3c(C)c(O)c4c(O)c(c5c(c4c3C2=O)NC2(CCN(CC(C)C)CC2)N=5)=NC(=O)/C(C)=C\\C=C\\[C@H](CO)[C@H](O)[C@@H](C)[C@@H](O)[C@@H](C)[C@H](OC(C)=O)[C@@H]1C", "strain or isolate": "CDC2", "measure": "MIC", "value": "1.25 µg/mL"}
{"structure": "CCn1cc(C(=O)O)c(=O)c2cc(F)c(-n3cccc3)cc21", "measure": "MIC", "value": "89.1 µg/mL"}
{"structure": "Nc1nc(-n2cc(C(=O)O)c(=O)c3cc(F)c(N4CC(O)C4)c(Cl)c32)c(F)cc1F", "strain or isolate": "20 strains", "measure": "MIC90", "value": "25 µg/mL"}
{"structure": "CC[C@@H](C)N1CCN(c2cc(=O)c3nc4c(oc3c2)c2c(=O)c3c(O)c(C)c5c(c34)=C(O)[C@@](C)(O/C=C/[C@H](OC)[C@@H](C)[C@@H](OC(C)=O)[C@H](C)[C@H](O)[C@H](C)[C@@H](O)[C@@H](C)/C=C/C=C(/C)C(=O)N2)O5)CC1", "strain or isolate": "31 strains", "measure": "MIC50", "value": "0.05 µg/mL"}
{"structure": "C[C@@H]1CN(c2c(F)c(N)c3c(=O)c(C(=O)O)cn(C4CC4)c3c2F)C[C@H](C)N1", "strain or isolate": "20 strains", "measure": "MIC90", "value": "12.5 µg/mL"}
{"structure": "NC[C@H]1O[C@H](O[C@H]2[C@H](O)[C@@H](O[C@H]3O[C@H](CO)[C@@H](O)[C@H](N)[C@H]3O)[C@H](N)C[C@@H]2N)[C@H](O)[C@@H](O)[C@@H]1O", "strain or isolate": "N-486 (HIV-)", "measure": "MIC", "value": "8 µg/mL"}
{"structure": "CCn1cc(C(=O)O)c(=O)c2cnc(N3CCNCC3)nc21", "measure": "MIC", "value": ">250 µg/mL"}
{"structure": "CN1CCN(c2c(F)cc3c(=O)c(C(=O)O)cn(CCF)c3c2F)CC1", "strain or isolate": "16 isolates", "measure": "MIC50", "value": "50 µg/mL"}
{"structure": "CCn1cc(C(=O)O)c(=O)c2cc(F)c(N3CCNCC3)nc21", "measure": "MIC", "value": "13.7 µg/mL"}
{"structure": "CCn1cc(C(=O)O)c(=O)c2cc(F)c(N3CCNC(C)C3)c(F)c21", "strain or isolate": "16 isolates", "measure": "MIC50", "value": "100 µg/mL"}
{"structure": "CO[C@H]1/C=C/O[C@@]2(C)Oc3c(C)c(O)c4c(O)c(c(/C=N/N5CCN(C)CC5)c(O)c4c3C2=O)NC(=O)/C(C)=C\\C=C\\[C@H](C)[C@H](O)[C@@H](C)[C@@H](O)[C@@H](C)[C@H](OC(C)=O)[C@@H]1C", "strain or isolate": "CIPT 140310031", "measure": "MIC", "value": "0.1 µg/mL"}
{"structure": "CC1CCc2cc(F)cc3c(=O)c(C(=O)O)cn1c23", "measure": "MIC", "value": ">250 µg/mL"}
{"structure": "CO[C@H]1/C=C/O[C@@]2(C)Oc3c(C)c(O)c4c(=O)c(c5oc6cc(N7CCN(CC(C)C)CC7)cc(=O)c6nc5c4c3=C2O)NC(=O)/C(C)=C\\C=C\\[C@H](C)[C@H](O)[C@@H](C)[C@@H](O)[C@@H](C)[C@H](OC(C)=O)[C@@H]1C", "strain or isolate": "N-260", "measure": "MIC", "value": "0.1 µg/mL"}
{"structure": "COc1c(N2CCNC(C)C2)c(F)cc2c(=O)c(C(=O)O)cn(C3CC3)c12", "strain or isolate": "16 isolates", "measure": "MIC90", "value": "25 µg/mL"}
{"structure": "CCn1cc(C(=O)O)c(=O)c2cc(F)c(N3CCNCC3)cc21", "measure": "MIC", "value": "11.4 µg/mL"}
{"structure": "CO[C@H]1/C=C/O[C@@]2(C)Oc3c(C)c(O)c4c(O)c(c5c(c4c3C2=O)NC2(CCN(CC(C)C)CC2)N=5)=NC(=O)/C(C)=C\\C=C\\[C@H](C)[C@H](O)[C@@H](C)[C@@H](O)[C@@H](C)[C@H](OC(C)=O)[C@@H]1C", "strain or isolate": "20 isolates", "measure": "MIC90", "value": "0.5 µg/mL"}
{"structure": "CC1COc2c(C3(N)CC3)c(F)cc3c(=O)c(C(=O)O)cn1c23", "strain or isolate": "16 isolates", "measure": "MIC50", "value": ">100 µg/mL"}
{"structure": "CCn1cc(C(=O)O)c(=O)c2ccc(C)nc21", "measure": "MIC", "value": ">250 µg/mL"}

For reference, 2 entries again:

structure | strain or isolate | measure | value
CO[C@H]1/C=C/O[C@@]2(C)Oc3c(C)c(O)c4c(O)c(c(/C=N/N5CCN(C)CC5)c(O)c4c3C2=O)NC(=O)/C(C)=C\C=C\[C@H](C)[C@H](O)[C@@H](C)[C@@H](O)[C@@H](C)[C@H](OC(C)=O)[C@@H]1C | CIPT 140310031 | MIC | 0.1 µg/mL
CCn1cc(C(=O)O)c(=O)c2cc(F)c(N3CCNC(C)C3)c(F)c21 | 16 isolates | MIC50 | 100 µg/mL